{"source": "paper PMC8000395", "about": "“Effective Small Molecule Antibacterials from a Novel Anti-Protein Secretion Screen” (Microorganisms, 2021)"}
{"system": "Entheropathogenic E. coli O127:H6 strain E2348/69", "test": "Antimicrobial activity test (growth, OD600)", "format": "cell-based", "details": "Escherichia coli, read-out: Bacterial Viability (IC50)", "units": {"IC50": "µM"}}
{"compound": "O=C(/C=C/c1csnn1)c1cccc2ccccc12", "note": "[HSI#10]", "IC50": "> 100"}
{"compound": "O=C(/C=C/c1csnn1)c1cc(Cl)ccc1Cl", "note": "[HSI#05]", "IC50": "> 100"}
{"compound": "O=C(/C=C/c1csnn1)c1ccccc1Cl", "note": "[HSI#01]", "IC50": "> 100"}
